Data as given in PubChem BioAssay AID504761 (Drosophila RNAi Screening Center, 2011).
The deposit covers about 22,000 reagents; this is a random part of those with a known target gene and a result. Over the whole deposit, 116 (0.52%) were called active. 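Calls depend on retest data that are not deposited; infection was ranked per plate without normalising between plates; the unit of the infection score is not given.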 Entries without a mark were called inactive. A plus sign joins genes that one reagent is predicted to hit. Not all columns of the deposit are shown. No sequences are given here. The record does not give: the amount of reagent, the time to read-out.

Purpose: 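Genome-wide fly cell screen for genes dengue virus requires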 (primary screen)
Cells: D.Mel-2 cells from Drosophila
Reagents: long dsRNA against Drosophila genes
Conditions: infection with dengue virus type 2; dose and infection time not stated
Read-out: 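Cells stained for dengue envelope protein and imaged; percent of infected cells per well on duplicate plates, ranked by infection, with stained nuclei counted for cell number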
Direction: infection score: higher = more virus-infected cells
Active means: 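Low infection ranks in the two replicates (chance level up to 0.065) followed by a retest with a 1.5-fold or larger significant decrease, p below 0.05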
Calls: active = confirmed: knock-down lowers infection; inactive = not picked or not confirmed

| gene | amplicon | infection score, replicate 1 |
| --- | --- | --- |
| ND-18 | DRSC19441 | 8.21 |
| CG12158 | DRSC22933 | 0.82 |
| janB | DRSC16973 | 9.71 |
| CG5418 | DRSC02857 | 2.61 |
| CG5418 | DRSC25643 | 4.61 |
| Ir76a | DRSC10987 | 2.53 |
| LamC | DRSC07453 | 29.2 |
| LamC | DRSC25517 | 8.7 |
| Nup75 | DRSC06947 | 12.2 |
| Nup75 | DRSC28056 | 28.8 |
| CG6034 | DRSC10572 | 4.93 |
| CG6034 | DRSC27294 | 36.4 |
| Smyd3 | DRSC17744 | 2.96 |
| Smyd3 | DRSC26723 | 6.39 |
| Gem4b + Gem4c + Glos | DRSC18244 | 1.52 |
| CG1440 | DRSC17915 | 2.28 |
| dbr | DRSC00274 | 19 |
| side-VI | DRSC14920 | 3.36 |
| side-VI | DRSC23088 | 0.95 |
| side-VI | DRSC28883 | 9.36 |
| ctp | DRSC18758 | 2.56 |
| ctp | DRSC25165 | 0.59 |
| CG17376 | DRSC21717 | 5.68 |
| CG6724 | DRSC02983 | 5.39 |
| Mrm2 | DRSC14310 | 9.71 |
| Mrm2 | DRSC27849 | 4.42 |
| CG10738 | DRSC09792 | 0.29 (active) |
| CG10738 | DRSC24408 | 2.04 |
| CD98hc | DRSC15453 | 2.57 |
| LanB1 | DRSC03360 | 2.1 |
| LanB1 | DRSC27259 | 11.4 |
| sad | DRSC16630 | 6.22 |
| sad | DRSC28569 | 3.78 |
| CCDC151 | DRSC10131 | 2.81 |
| CCDC151 | DRSC27319 | 3.35 |
| 7B2 | DRSC11991 | 4.99 |
| mAChR-A | DRSC04702 | 4.41 |
| mAChR-A | DRSC28262 | 21.3 |
| CG2865 | DRSC18527 | 1.59 |
| CG2865 | DRSC18528 | 14.9 |
| CG2865 | DRSC28086 | 16.2 |

Reagents listed so far marked active (1):
| gene | amplicon | infection score, replicate 1 |
| --- | --- | --- |
| CG10738 | DRSC09792 | 0.29 (active) |
